Results from PubChem BioAssay AID710 (SRMLSC, 2007).
Only a part is listed here, and it is no random draw. Active and inactive are the calls of the source.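 How the source made its calls: active means growth inhibition above about 50% at one test dose (limit read from the data); inactive means the rest.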

assay: growth inhibitors of wild-type E. coli, primary screen, strain BW25113, expanded library, OD600 (AID 710); settings: OD600 absorbance, at 100 µM, active compounds read high;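 further: growth measured after 20 h incubation at 37 °C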

**Q.** For `COP1(=S)c2c(C)nn(CCC#N)c2N=C(c2ccc(F)cc2)N1C` (stereo not given), which growth inhibition is on record?
**A.** inactive: 5%

**Q.** For `O=C(COc1ccccc1)OC1CN2CCC1CC2` (stereo not given), which growth inhibition is on record?
**A.** inactive: -8%

**Q.** Which growth inhibition does the source give for `O=C(OC1CN2CCC1CC2)C12CC3CC(CC(C3)C1)C2` (stereo not given) here?
**A.** inactive: 0%

**Q.** For `CCN(CC)C(=S)SC(NC=O)C(Cl)(Cl)Cl` (stereo not given), which growth inhibition is on record?
**A.** inactive: 25%

**Q.** Which growth inhibition does the source give for `O=P(Nc1nccs1)(c1ccccc1)c1nc2ccccc2s1` (stereo not given) here?
**A.** inactive: 2%

**Q.** With `CCOP1(=S)c2c(C)nn(CCC#N)c2N=C(c2ccccc2F)N1C` (stereo not given) as the molecule, how does the growth inhibition read?
**A.** inactive: 9%

**Q.** For `O=[N+]([O-])c1ccc2c(c1)nnn2O`, which growth inhibition is on record?
**A.** inactive: -4%

**Q.** Which growth inhibition does the source give for `CCOP1(=S)c2c(C)nn(CCC#N)c2N=C(c2ccc(F)cc2)N1C` (stereo not given) here?
**A.** inactive: -4%

**Q.** For `Cc1cccc(OCC(=O)OC2CN3CCC2CC3)c1` (stereo not given), which growth inhibition is on record?
**A.** inactive: -4%

**Q.** Which growth inhibition does the source give for `O=P1(Nc2ccccn2)COc2ccccc2OC1` here?
**A.** inactive: 6%

**Q.** For `Clc1n[nH]nc1-c1nn[nH][15n]1`, which growth inhibition is on record?
**A.** inactive: 3%

**Q.** With `Cc1nn(-c2ccccc2)c2c1P(=O)(N1CCOCC1)N(C)C(c1ccccc1)=N2` (stereo not given) as the molecule, how does the growth inhibition read?
**A.** inactive: 0%

**Q.** Which growth inhibition does the source give for `O=P1(Nc2ncccn2)COc2ccccc2OC1` here?
**A.** inactive: 0%

**Q.** With `Cc1ccc(OCC(=O)OC2CN3CCC2CC3)cc1` (stereo not given) as the molecule, how does the growth inhibition read?
**A.** inactive: 2%

**Q.** For `O=P1(Nc2ccc(Br)cn2)COc2ccccc2OC1`, which growth inhibition is on record?
**A.** inactive: -4%

**Q.** Which growth inhibition does the source give for `O=C(OC1CN2CCC1CC2)c1cccc(Cl)c1` (stereo not given) here?
**A.** inactive: 12%

**Q.** For `O=P(Nc1nccs1)(c1ccccc1)c1ccccc1`, which growth inhibition is on record?
**A.** inactive: 6%

**Q.** Which growth inhibition does the source give for `c1nnnn1CCn1cnnn1` here?
**A.** inactive: 8%

**Q.** For `O=P1(Nc2nc3ccc(Cl)cc3s2)COc2ccccc2O1` (stereo not given), which growth inhibition is on record?
**A.** inactive: 7%

**Q.** For `CCOC(=O)NC(Sc1ccccc1)C(Cl)(Cl)Cl` (stereo not given), which growth inhibition is on record?
**A.** inactive: -2%

**Q.** For `COC(=O)c1cc2c(s1)N=C(c1ccccc1)N(C)P2(=O)N1CCOCC1` (stereo not given), which growth inhibition is on record?
**A.** inactive: 6%

**Q.** For `CCC(=O)N1C2C3N(C(=O)CC)C1C1N(C(=O)CC)C(C(N1C(=O)CC)N3C(=O)CC)N2C(=O)CC`, which growth inhibition is on record?
**A.** inactive: -6%

**Q.** For `CCOP(=O)(Nc1ccccc1)OCC`, which growth inhibition is on record?
**A.** inactive: -5%

**Q.** With `CC(C)CC(=O)NC(Sc1ccc(Cl)cc1)C(Cl)(Cl)Cl` (stereo not given) as the molecule, how does the growth inhibition read?
**A.** inactive: -2%

**Q.** For `Cc1c2non([O-])c-2c(C)[n+](=O)[n+]1[O-]`, which growth inhibition is on record?
**A.** active: 95%

**Q.** With `Oc1ccccc1CNc1ccccn1` as the molecule, how does the growth inhibition read?
**A.** inactive: 12%

**Q.** Which growth inhibition does the source give for `O=[N+]([O-])c1cccc2n[nH]nc12` here?
**A.** inactive: 9%

**Q.** Which growth inhibition does the source give for `CC(=O)N1C2C3N(C(C)=O)C1C1N(C(C)=O)C(C(N1C(C)=O)N3C(C)=O)N2C(C)=O` here?
**A.** inactive: 4%

**Q.** With `CCc1nc2c(n1)c1c(non1O)c1c2no[n+]1[O-]` as the molecule, how does the growth inhibition read?
**A.** inactive: -6%

**Q.** With `CC1CCN(C(=O)Oc2c(Cl)cc(Cl)c3cccnc23)CC1` as the molecule, how does the growth inhibition read?
**A.** inactive: 6%
